Values from PubChem BioAssay AID1259414 (Drosophila RNAi Screening Center, 2018)

Aim: 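Fly genes that alter Wolbachia amount inside host cells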 (primary screen)
System: Drosophila JW18 cells infected with Wolbachia
Reagents: long dsRNA against Drosophila genes, 0.25 µg dsRNA per well of a 384-well plate
Time to read-out: 5 days
Treatment: cells persistently infected with Wolbachia before knock-down; no added drug
Read-out: 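Imaged fluorescence in situ signal for Wolbachia 23S rRNA per DAPI-counted host cell, given as a robust z-score within each plate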
Direction: Wolbachia per cell robust z: higher = more Wolbachia per host cell than the plate typical
Hit rule: 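Hit when robust z is 1.5 or more, or -1.5 or less, in at least two of three replicates; excludes dsRNAs with several or no targets, genes not expressed in JW18 and well A1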
In all, the deposit lists about 24,000 reagents; below is an unselected part of those that have a named target and a result. Of all reagents, about 1,210 (5%) were called active. 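Inactive calls also include excluded dsRNAs with several or no targets, genes unexpressed in JW18, and well A1, regardless of score.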 Unmarked entries are inactive. Names joined by + are all predicted targets of the reagent.

no.	gene knocked down	amplicon	Wolbachia per cell robust z, rep 1	Wolbachia per cell robust z, rep 2	Wolbachia per cell robust z, rep 3
1	Vha100-4	DRSC16282	0.765	0.372	0.4
2	Vha100-4	DRSC26139	-0.785	-0.274	-1.75
3	CG8927	DRSC16458	0.257	-5.28	-0.648
4	CG8927	DRSC25722	0.43	-0.0845	0.68
5	cv	DRSC17833	0.375	-0.216	0.614
6	Sas10	DRSC18355	0.217	0.286	-0.265
7	CG18539	DRSC06766	-0.57	0.0973	-1.96
8	dah	DRSC20320	1.28	1.44	0.301
9	side-III	DRSC12155	-7.15	0.478	-0.34
10	side-III	DRSC12264	-0.121	0.568	-0.46
11	side-III	DRSC24955	-0.582	-0.81	-0.983
12	side-III	DRSC30000	0.38	-0.247	0.409
13	OSCP1	DRSC06304	-0.781	0.452	-2.25
14	PGRP-LF	DRSC28930	0.0255	-0.422	-1.48
15	tau	DRSC22987	-0.0402	-0.83	-4.11
16	tau	DRSC23046	1.24	0.144	-1.71
17	tau	DRSC25786	-0.664	-0.314	-1.98
18	tau	DRSC38649	0.738	0.0461	-0.197
19	tau	DRSC39085	-3.45	0.4	-0.367
20	Eig71Eg	DRSC11154	0.709	0.019	-0.669
21	CG6800	DRSC16119	-0.161	-0.288	-1.21
22	CG6800	DRSC41616	-2.98	0.785	0.441
23	CG34296	DRSC38809	0.167	-0.351	0.277
24	Cdk5alpha	DRSC03290	0.468	0.169	0.722
25	Cdk5alpha	DRSC23301	-1.56	-0.0223	-0.233
26	IP3K1	DRSC02734	-1.86 (active)	-0.319	-4.67
27	CG15404	DRSC00418	0.898	-0.454	0.485
28	CG7550	DRSC10875	1.23	-4.61	0.457
29	Ada1-2 + Ada1-1	DRSC01220	-1.44	-1.54	-1.55
30	Ada1-2 + Ada1-1	DRSC01222	-4.17	-2.28	-2.76
31	Ada1-2 + Ada1-1	DRSC28646	0.532	0.181	-0.208
32	CG11638	DRSC18167	-0.567	-0.784	-1.04
33	CG11638	DRSC18640	-1.54	-0.566	-0.932
34	Lcp2	DRSC07456	-1.04	-0.925	1.31
35	Lcp2	DRSC41546	-1.59	-2.45	0.799
36	CG7573	DRSC10884	0.338	-0.27	-5.75
37	Spn55B	DRSC07694	-2.51 (active)	-4.32	-2.6
38	Spn55B	DRSC21862	-0.191	-0.652	-0.151
39	Spn55B	DRSC27961	0.781	1.02	0.888
40	Pgant9	DRSC05621	-1.05	-0.0158	-0.369
41	Pgant9	DRSC06584	-2.58	-0.963	-0.431
42	Pgant9	DRSC07185	-1.46	-0.19	-0.135
43	Pgant9	DRSC07186	-2.27 (active)	0.7	-2.61
44	Pgant9	DRSC07187	0.481	0.844	-0.164
45	Pgant9	DRSC07189	-0.317	-0.125	-0.0036
46	CG30089	DRSC06126	0.00813	1.46	0.403
47	CG30089	DRSC06267	-0.0355	-0.622	-1.53
48	CG30089	DRSC06268	0.781	0.454	0.322
49	Smyd3	DRSC17744	-2.13	-0.164	-0.368
50	Smyd3	DRSC26723	0.812	1.19	-0.11
51	Smyd3	DRSC38965	0.824	0.0571	0.512
52	CG31759	DRSC01230	-0.173	-1.82	-0.748
53	NimC4	DRSC01945	-0.234	-6.05	-0.918
54	CG7173	DRSC23252	0.399	-3.05	-0.386
55	CG7173	DRSC29453	-0.0649	-0.197	-6.85
56	CG1105	DRSC12528	-4.01	0.198	-0.0948
57	CG1105	DRSC27366	-2.36 (active)	-2.04	-1.99
58	nau	DRSC17011	-6.19 (active)	-2.2	0.338
59	Cyp4g15	DRSC20240	0.532	0.101	1.03
60	CG14957	DRSC08416	-5.19	0.837	0.359
61	CG12984	DRSC11693	-1.14	0.6	-0.551
62	vir-1	DRSC02501	0.783	-0.811	0.383
63	vir-1	DRSC02863	1.22 (active)	-6.97	-5.25
64	vir-1	DRSC25208	0.309	-0.406	0.71
65	Sgf29	DRSC04076	0.427	0.665	0.287
66	CG30357	DRSC22472	-2.83	0.0404	0.439
67	CG14352	DRSC00382	0.689	-1.47	0.206
68	CG5112	DRSC15718	0.441	-1.05	0.308
69	CG10514	DRSC14249	-2.49	0.442	-0.586
70	CG10514	DRSC28098	0.116	0.99	0.938
71	CG16700	DRSC19755	-3.07	-0.0982	0.244
72	CG4098	DRSC10399	0.249	0.335	-0.788
73	CR43087 + CR43086 + CG34002	DRSC11953	-1.04	0.14	-0.415
74	CG5793 + Obp93a	DRSC15220	-0.651	-0.266	0.235
75	CG11523	DRSC11669	-1.47	0.0976	0.809
76	CG11523	DRSC26429	0.0022	-0.0351	1.52
77	Rrp40	DRSC00074	-0.000823	0.664	0.477
78	CG42324	DRSC08431	0.727	0.642	-0.808
79	CG42324	DRSC08432	-0.669	1.93	-2.13
80	CG42324	DRSC26516	0.347	0.933	0.338
81	CG42820	DRSC02265	-0.612	0.881	0.274
82	CG42820	DRSC28699	-0.854	0.0151	-0.358
83	CG7370	DRSC41311	0.512	1.84	0.66
84	Dsk	DRSC12347	0.136	-0.518	-0.312
85	CG34211	DRSC41337	-1.07	0.308	0.561
86	Ing3	DRSC20002	-3.99	-8.78	0.31
87	Ing3	DRSC27959	-0.508	1.46	0.512

5 consecutive records from above, quoted:
no.	gene knocked down	amplicon	Wolbachia per cell robust z, rep 1	Wolbachia per cell robust z, rep 2	Wolbachia per cell robust z, rep 3
19	tau	DRSC39085	-3.45	0.4	-0.367
20	Eig71Eg	DRSC11154	0.709	0.019	-0.669
21	CG6800	DRSC16119	-0.161	-0.288	-1.21
22	CG6800	DRSC41616	-2.98	0.785	0.441
23	CG34296	DRSC38809	0.167	-0.351	0.277
